Anti-infective test results gathered from many reports (values: NIAID ChemDB through PubChem).

A number after MIC or MFC names an inhibition level or a share of isolates. Percent inhibition refers to the dose given; in toxicity tests it is the harm to the cells. Blank or dashed fields: not listed here. ECn is the concentration giving n% inhibition of infection, replication or growth. Rows are shuffled and stem from different studies. MIC bound comes from a single tested concentration. ICn is the concentration giving n% inhibition.

| structure | method | organism | test | strain | measure | target | cell line | dose | value |
|---|---|---|---|---|---|---|---|---|---|
| O=C(O)c1ccc([N+](=O)[O-])o1 |  | Mycobacterium tuberculosis | culture | H37Rv | MIC |  |  |  | >100 µg/mL |
| COc1ccc(N2CCN(c3cncc(-c4ccccc4)n3)CC2)cc1 |  | Cytomegalovirus | target |  | inhibition | UL97 kinase |  | 10 µM | >15% |
| O=C(/C=C/c1ccccc1Cl)Nc1nnc(NC2CCCc3ccccc32)s1 |  | Human cytomegalovirus | target |  | IC50 | Polymerase |  |  | >25 µM |
| COc1ccc2cc3[n+](cc2c1OC)CCc1cc2c(cc1-3)OCO2 |  | Vittaforma corneae | culture |  | inhibition |  | RK-13 | 0.1 µg/mL | 42.2% |
| C/C=C1\N=C(c2ccccc2)OC1=O |  | Mycobacterium tuberculosis | culture | H37Rv | MIC |  |  |  | >100 µg/mL |
| Fc1ccc(N2CCN(c3cncc(-c4ccc(C(F)(F)F)cc4)n3)CC2)cc1 |  | Cytomegalovirus | target |  | inhibition | UL97 kinase |  | 1 µM | <50% |
| CCCCCCCC/C=C/CCCCCCCC(=O)Nc1nnc(NCCCn2ccnc2)s1 |  | Human cytomegalovirus | target |  | IC50 | Polymerase |  |  | >25 µM |
| O=S(=O)(O)c1ccc2cc(O)c(S(=O)(=O)O)cc2c1 | cytopathic effect | Adenovirus | culture | TYPE 3 | inhibition |  | Human amnion AV3 cells | 10 µg/mL | 0% |
| CC(=O)Oc1ccccc1C(=O)Nc1ncc([N+](=O)[O-])s1 |  | Vittaforma corneae | culture |  | inhibition |  | RK-13 | 0.001 µg/mL | 22.3% |
| C/C=C(/C)NS(=O)(=O)c1ccc(Br)cc1 |  | Mycobacterium tuberculosis | culture | H37Rv | MIC |  |  |  | 25 µg/mL |
| Fc1ccc(N2CCCCC2)c(NC(=S)c2ccncc2)c1 | kinase activity |  | host protein |  | inhibition | JNK1alpha1 |  | 10 µM | 0% |
| Nc1ccc2cc(S(=O)(=O)O)cc(S(=O)(=O)O)c2c1 | cytopathic effect | Herpes simplex virus | culture |  | inhibition |  | Human amnion AV3 cells | 5 µg/mL | 0% |
| CCCCCCCCCCCCCCCCCCn1c(C)ccc1C |  | Mycobacterium tuberculosis | culture | H37Rv | MIC |  |  |  | >100 µg/mL |
| O=C(Nc1nnc(NCCCN2CCCC2=O)s1)c1cc(F)cc(F)c1 |  | Human cytomegalovirus | target |  | IC50 | Polymerase |  |  | >25 µM |
| Cc1cc(-c2ccc(N=Nc3c(S(=O)(=O)O)cc4cc(S(=O)(=O)O)cc(N)c4c3O)c(C)c2)ccc1N=Nc1c(S(=O)(=O)O)cc2cc(S(=O)(=O)O)cc(N)c2c1O | cytopathic effect | Adenovirus | culture | TYPE 3 | inhibition |  | Human amnion AV3 cells | 10 µg/mL | 0% |
| CC[C@]1(O)C[C@H]2CN(CCc3c([nH]c4ccccc34)[C@@](C(=O)OC)(c3cc4c(cc3OC)N(C)[C@H]3[C@@](O)(C(=O)OC)[C@H](OC(C)=O)[C@]5(CC)C=CCN6CC[C@]43[C@@H]65)C2)C1 |  | Encephalitozoon intestinalis | culture |  | inhibition |  | RK-13 | 1 µg/mL | 71.5% |
| CN(C)c1ccc(C(=O)C(=O)c2ccccc2)cc1 |  | Mycobacterium tuberculosis | culture | H37Rv | MIC |  |  |  | 25 µg/mL |
| C=CCc1ccc(OC)c(OC)c1 | turbidity | Candida tropicalis | culture | 2356 | MIC90 |  |  |  | 345 µg/mL |
| O=c1oc2ccccc2c(O)c1C(c1ccc2c(c1)OCO2)N1CCOCC1 | BACTEC | Mycobacterium tuberculosis | culture | H37Rv | inhibition |  |  | 12.5 µg/mL | 32% |
| COc1ccc(C)c(NCc2cnc3nc(N)nc(N)c3c2C)c1 |  | Encephalitozoon intestinalis | culture |  | inhibition |  | RK-13 | 0.01 µg/mL | 22.6% |
| O=S(=O)([O-])c1cc(NS(=O)(=O)c2ccccc2)c2c(S(=O)(=O)[O-])cc(S(=O)(=O)[O-])cc2c1 | cytopathic effect | Adenovirus | culture | TYPE 3 | inhibition |  | Human embryonic lung cells | 50 µg/mL | 90% |
| Cc1ccc(C(=O)c2ccccc2Cl)cc1 |  | Mycobacterium tuberculosis | culture | H37Rv | MIC |  |  |  | >100 µg/mL |
| CCO/N=C/c1ccc(OCCC2CCN(c3ccc(C)nn3)CC2)cc1 | neutral red | Rhinovirus | culture | JM1 (ICAM-1 receptor group 91) | EC50 |  | KB |  | 0.06 µM |
| CC(=O)c1ccc(N2CCN(c3cncc(-c4cccc(C)c4)n3)CC2)cc1 |  | Cytomegalovirus | target |  | IC50 | UL97 kinase |  |  | <100 µM |
| O=[N+]([O-])c1ccc(O)cc1 |  | Mycobacterium tuberculosis | culture | H37Rv | MIC |  |  |  | >100 µg/mL |
| Nc1cc(S(=O)(=O)[O-])cc2cc(S(=O)(=O)[O-])ccc12 | cytopathic effect | Herpes simplex virus | culture |  | inhibition |  | Human conjunctiva cells | 10 µg/mL | 0% |
| CCCCOc1nc(NCC)nc(NCC)n1 |  | Mycobacterium tuberculosis | culture | H37Rv | MIC |  |  |  | 100 µg/mL |
| COc1cc(OC)cc(N(C)Cc2cnc3nc(N)nc(N)c3c2C)c1 |  | Encephalitozoon intestinalis | culture |  | inhibition |  | RK-13 | 0.1 µg/mL | 53.6% |
| CCOc1ccc2ccccc2c1C(=O)Nc1nnc(NCc2ccc(F)cc2)s1 |  | Human cytomegalovirus | target |  | IC50 | Polymerase |  |  | <25 µM |
| CC(=O)c1cccc(-c2cncc(N3CCN(c4ccccc4)CC3)n2)c1 |  | Cytomegalovirus | target |  | inhibition | UL97 kinase |  | 1 µM | <50% |
| c1cc[n+](COCCOC[n+]2ccccc2)cc1 |  | Mycobacterium tuberculosis | culture | H37Rv | MIC |  |  |  | >100 µg/mL |
| NCS(=O)(=O)O | cytopathic effect | Herpes simplex virus | culture |  | inhibition |  | Human conjunctiva cells | 10 µg/mL | 0% |
| CN(C)C(=O)CCCCCCCCC(=O)N(C)C |  | Mycobacterium tuberculosis | culture | H37Rv | MIC |  |  |  | >100 µg/mL |
| O=C(Nc1nnc(NCCCN2CCCC2=O)s1)c1ccc(Cl)c(Cl)c1 |  | Human cytomegalovirus | target |  | IC50 | Polymerase |  |  | >25 µM |
| Fc1ccc(-c2cncc(N3CCN(c4ccccc4F)CC3)n2)cc1 |  | Cytomegalovirus | target |  | IC50 | UL97 kinase |  |  | <10 µM |
| O=C(O)c1ccc2c(c1)OCO2 |  | Mycobacterium tuberculosis | culture | H37Rv | MIC |  |  |  | 50 µg/mL |
| Cc1cc(C)cc(-c2cncc(N3CCN(c4ccc(F)cc4)CC3)n2)c1 |  | Cytomegalovirus | target |  | IC50 | UL97 kinase |  |  | <100 µM |
| c1cc[c]([Ge]([c]2ccccc2)([c]2ccccc2)[c]2ccccc2)cc1 |  | Mycobacterium tuberculosis | culture | H37Rv | MIC |  |  |  | >100 µg/mL |
| CCOC(=O)Nc1cc2c(c(N)n1)N=C(c1cccc(OC)c1)CS2 |  | Encephalitozoon intestinalis | culture |  | inhibition |  | RK-13 | 0.1 µg/mL | 31.9% |
| Cc1ccc(S(=O)(=O)[O-])cc1N.[Na+] |  | Mycobacterium tuberculosis | culture | H37Rv | MIC |  |  |  | >100 µg/mL |
| COC(=O)CCC(=O)CC(=O)C1=NS(=O)(=O)c2nc(S(N)(=O)=O)c(Cl)cc2N1 | resazurin | Mycobacterium tuberculosis | culture | H37Rv | MIC bound |  |  |  | >6.25 µg/mL |
| O=C(SSC(=O)c1ccc(Br)cc1)c1ccc(Br)cc1 |  | Mycobacterium tuberculosis | culture | H37Rv | MIC |  |  |  | >100 µg/mL |
| CCOC(=O)Nc1cc2[nH]c(=O)c(-c3ccccc3)nc2c(NC(c2ccccc2)c2ccccc2)n1 |  | Encephalitozoon intestinalis | culture |  | inhibition |  | RK-13 | 0.01 µg/mL | 57.5% |